RC index of single-base changes in HIV-1 integrase

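Random point mutant libraries of HIV-1 NL4-3, one for each of seven fragments, were passaged in CEM T lymphocytes. The RC index is the frequency of a change after passage round 2 divided by its frequency in the plasmid library.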

Protein: integrase of HIV-1 NL4-3, numbered from its first residue. The source prints no sequence; the chain below is taken from UniProt P12497, a closely related isolate, and fits the source at the 252 positions it covers.
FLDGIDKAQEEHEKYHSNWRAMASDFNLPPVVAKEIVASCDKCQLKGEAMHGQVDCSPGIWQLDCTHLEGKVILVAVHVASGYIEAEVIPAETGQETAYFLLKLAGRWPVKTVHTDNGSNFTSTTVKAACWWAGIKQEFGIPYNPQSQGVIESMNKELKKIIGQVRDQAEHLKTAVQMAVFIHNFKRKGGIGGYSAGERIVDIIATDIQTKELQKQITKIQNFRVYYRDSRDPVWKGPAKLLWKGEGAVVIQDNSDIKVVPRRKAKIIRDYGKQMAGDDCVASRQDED
Effects on overlapping genes or RNA elements are not listed.

RC index: lower means poorer replication; rough cut-offs are 0.1 (lethal) and 0.2 (tolerated).
A change reads original residue, position, new residue.
Input reads are the counts in the plasmid library.
Nucleotide positions follow pNL4-3.

change,base,input reads,replication capacity index
M154I,G4691T,49,1.20
N155D,A4692G,211,0.0339
N155Y,A4692T,90,0.119
K156E,A4695G,283,0.0568
K156T,A4696C,62,0.115
K156R,A4696G,373,0.0479
L158S,T4702C,209,0.0683
K159R,A4705G,279,0.0384
K160E,A4707G,207,0.0863
K160I,A4708T,165,0.0541
I161V,A4710G,162,0.110
I161T,T4711C,164,0.109
I162T,T4714C,225,0.0317
G163R,G4716A,272,0.821
Q164H,G4721C,96,0.0930
V165L,G4722C,116,0.0462
V165E,T4723A,317,0.0507
V165A,T4723C,227,0.126
D167H,G4728C,40,0.0893
H171L,A4741T,404,0.0354
L172I,C4743A,258,0.118
L172P,T4744C,366,0.0390
K173E,A4746G,184,0.0776
T174R,C4750G,284,0.0440
A175S,G4752T,265,0.0674
V176I,G4755A,872,0.0942
V176L,G4755C,260,0.0481
V176A,T4756C,240,0.141
Q177R,A4759G,507,0.0423
Q177L,A4759T,460,0.0272
Q177H,A4760T,438,0.0285
M178L,A4761T,277,0.0322
M178K,T4762A,635,0.0253
M178T,T4762C,303,0.0471
M178I,G4763A,255,0.140
A179G,C4765G,84,0.0850
V180L,G4767T,254,0.0914
V180E,T4768A,158,0.0452
F181L,T4770C,420,0.0383
I182F,A4773T,367,0.0681
I182T,T4774C,313,0.0742
N184D,A4779G,273,0.0523
N184S,A4780G,299,0.0239
N184I,A4780T,466,0.0536
F185L,T4782C,545,0.0592
F185S,T4783C,493,0.0691
F185L,T4784A,462,0.0466
K186T,A4786C,146,0.0246
K186R,A4786G,400,0.0448
K186I,A4786T,670,0.0428
R187K,G4789A,268,0.729
R187I,G4789T,319,0.0899
R187S,A4790T,167,0.0537
K188T,A4792C,188,0.0382
K188I,A4792T,371,0.0725
K188N,A4793T,583,0.0369
G189W,G4794T,249,0.209
G189E,G4795A,454,0.213
I191F,A4800T,263,0.0341
I191N,T4801A,153,0.0235
G193R,G4806A,259,0.243
G193V,G4807T,275,0.138
Y194F,A4810T,370,0.0390
A196G,C4816G,157,0.0115
G197R,G4818C,183,0.0492
E198G,A4822G,286,0.101
E198V,A4822T,231,0.0468
R199G,A4824G,358,0.0352
R199S,A4826T,150,0.0240
I200V,A4827G,376,0.0479
I200L,A4827T,335,0.0538
V201A,T4831C,235,0.0613
D202N,G4833A,273,0.0924
D202V,A4834T,429,0.0294
I203M,A4838G,214,0.126
I204V,A4839G,226,0.0159
I204L,A4839T,474,0.0190
I204T,T4840C,300,0.0661
I204M,A4841G,264,0.0614
A205P,G4842C,86,0.0419
A205V,C4843T,396,0.114
T206S,A4845T,520,0.0554
D207N,G4848A,285,0.152
D207G,A4849G,264,0.0682
I208V,A4851G,241,0.0299
I208K,T4852A,329,0.0493
I208T,T4852C,198,0.0910
Q209K,C4854A,126,0.172
Q209P,A4855C,119,0.0908
T210S,A4857T,221,0.0326
K211T,A4861C,35,0.0515
K211I,A4861T,433,0.0458
K211N,A4862T,183,0.0295
L213I,T4866A,350,0.0463
Q214R,A4870G,387,0.0466
K215I,A4873T,267,0.0270
I217T,T4879C,314,0.0229
T218A,A4881G,195,0.0554
T218I,C4882T,335,0.183
K219R,A4885G,130,0.0554
K219N,A4886T,254,0.0284
I220N,T4888A,218,0.0165
N222K,T4895A,230,0.102
F223I,T4896A,131,0.0550

Extract of 5 entries:

{"change": "F185S", "base": "T4783C", "input reads": "493", "replication capacity index": 0.0691}
{"change": "K156T", "base": "A4696C", "input reads": "62", "replication capacity index": 0.115}
{"change": "G189W", "base": "G4794T", "input reads": "249", "replication capacity index": 0.209}
{"change": "V165A", "base": "T4723C", "input reads": "227", "replication capacity index": 0.126}
{"change": "I191F", "base": "A4800T", "input reads": "263", "replication capacity index": 0.0341}

The authors read an index above 1 as above wild type (1.9% of all changes in the genome).
Clones carried about five changes per kilobase, which can drag down the index of neutral changes.

Values reported by Al-Mawsawi et al. 2014 (doi:10.1186/s12977-014-0124-6).